Anti-infective test results gathered from many reports (values: NIAID ChemDB through PubChem).

Shared fields: whole-cell or culture tests; species: Mycobacterium tuberculosis

ECn: concentration that inhibits the pathogen or its effect by n%. Inhibition is in % at the dose shown (toxicity tests: loss of growth or viability). MIC bound: limit read from a one-dose screen. MIC50, MIC90 and the like: level of inhibition, or share of isolates inhibited. Lines come from different laboratories, so protocols vary. Blank or dashed fields: not listed here.

compound	cells	method	mutations	strain or isolate	dose	measure	value
N=C(N)N1N=C(/C=C/c2ccc(Cl)cc2)CC1c1ccc(Cl)cc1	-	resazurin	-	H37Rv	-	MIC	0.87 µM
N#Cc1nc2ccccc2nc1N1CCN(c2ccc([N+](=O)[O-])cc2)CC1	-	-	-	H37Rv	6.25 µg/mL	inhibition	0%
O=C(O)C1C2OC3C(OC(=O)C31)C2Cl	-	BACTEC	-	H37Rv	-	MIC bound	>12.5 µg/mL
O=C(NN1C(=O)CSC1c1ccc(Cl)cc1)c1cc(-c2cc(F)cc(F)c2)ccc1O	-	BACTEC	-	H37Rv	6.25 µg/mL	inhibition	<90%
Cc1ccc(NC(=O)C2(c3cccs3)CCOCC2)cc1C	-	turbidity	-	CDC1551	-	EC50	200 µM
CC1(C)CC2=C(Sc3ccccc3N2)C(=O)C1C(=O)C(=O)Nc1cc(Cl)ccc1Cl	-	BACTEC	-	H37Rv	-	MIC bound	>12.5 µg/mL
Cc1cc(NC(=O)C2(c3cccs3)CCOCC2)ccc1Br	-	turbidity	-	CDC1551	-	EC50	200 µM
N/C(=N\N=C/c1cn(Cc2ccc(Cl)cc2)c2ccccc12)c1ccc2ccccc2n1	-	-	-	H37RV (INH RMP OFL-S)	-	MIC	>128 µg/mL
COc1cc2c(cc1Cl)[n+]([O-])c(C#N)c(N)[n+]2[O-]	-	-	-	H37Rv	6.25 µg/mL	inhibition	99%
Cc1cc(C)c(Cn2cc(/C=N\N=C(/N)c3ccc4ccccc4n3)c3ccccc32)c(C)c1	-	-	-	H37RV (INH RMP OFL-S)	-	MIC	>128 µg/mL
O=C(NN1C(=O)CSC1c1cccc(F)c1)c1cc(-c2cc(F)cc(F)c2)ccc1O	-	BACTEC	-	H37Rv	6.25 µg/mL	inhibition	<90%
CCCCCCCCCCCCOC(=O)[C@H](Cc1c[nH]c2ccccc12)NC(=O)N[C@@H](CC1CCCCC1)C(=O)N[C@H](C(=O)NC[C@H]1C[C@@H](O)[C@H](n2ccc(=O)[nH]c2=O)O1)[C@H](C)N(C)C(=O)CN	-	resazurin / fluorescence	-	H37Rv	-	MIC50	0.2 µM
O=C(Nc1ccccc1)c1nn(-c2cc(S(=O)(=O)[O-])c([N+](=O)[O-])cc2Cl)[n+](-c2cc(S(=O)(=O)[O-])c([N+](=O)[O-])cc2Cl)n1.[Na+]	-	BACTEC	-	H37Rv	12.5 µg/mL	inhibition	0%
O=C(CCl)c1ccc(Oc2ccccc2)cc1	-	-	-	H37Rv	-	MIC	25 µg/mL
Cc1cc2c(cc1C)[n+](=O)c(C#N)c(Cl)n2[O-]	-	-	-	H37Rv	6.25 µg/mL	inhibition	99%
CCN1CC2(COC)C(O)CC(OC)C34C5CC6(O)C(OC)CC(O)(C5C6O)C(C(OC)C23)C14.Cl	-	BACTEC	-	H37Rv	12.5 µg/mL	inhibition	-9%
C[C@H]1COc2c(N3CCN(C)CC3)c(F)cc3c(=O)c(C(=O)O)cn1c23	-	-	-	55 isolates	1 µg/mL	inhibition	91%
O=C(NN1C(=O)CSC1c1occc1[N+](=O)[O-])c1cc(-c2cc(F)cc(F)c2)ccc1O	-	BACTEC	-	H37Rv	6.25 µg/mL	inhibition	<90%
CC(=O)O[C@H]1C2=C(C(=O)C(=O)C(C(C)C)=C2O)[C@@]2(C)CCCC(C)(C)[C@@H]2[C@@H]1O	-	MTT	-	H37Rv	-	MIC100	25 µg/mL
C=CCN1CCN(/N=C/c2c3c(O)c4c(O)c(C)c5c(c4c2O)C(=O)[C@@](C)(O/C=C/[C@H](OC)[C@@H](C)[C@@H](OC(C)=O)[C@H](C)[C@H](O)[C@H](C)[C@@H](O)[C@@H](C)/C=C/C=C(/C)C(=O)N3)O5)CC1	-	-	-	H37Rv	-	MIC	0.02 µg/mL
CCCC(=O)O[C@@H]1C(OC(C)=O)C2=C(C(=O)C(=O)C(C(C)C)=C2O)[C@@]2(C)CCCC(C)(C)[C@H]12	-	MTT	-	H37Rv	-	MIC100	25 µg/mL
COC(=O)[C@H](Cc1c[nH]c2ccccc12)NC(=O)N[C@@H](Cc1ccc2ccccc2c1)C(=O)N[C@H](C(=O)NC[C@H]1C[C@@H](O)[C@H](n2ccc(=O)[nH]c2=O)O1)[C@H](C)N(C)C(=O)CN	-	resazurin / fluorescence	-	H37Rv	-	MIC50	0.06 µM
O=C(Nc1ccc(Cl)cc1)C1(c2cccs2)CCOCC1	-	turbidity	-	CDC1551	-	EC50	22 µM
Cc1[nH]c2ccc(N(C)C)cc2c(=O)c1CN1CCN(C)CC1	-	BACTEC	-	H37Rv	-	MIC bound	>12.5 µg/mL
C[C@@H]([C@H](NC(=O)[C@H](CC1CCCCC1)NC(=O)N[C@@H](Cc1c[nH]c2ccccc12)C(=O)NCC(C)(C)C)C(=O)NC[C@H]1C[C@@H](O)[C@H](n2ccc(=O)[nH]c2=O)O1)N(C)C(=O)CN	-	resazurin / fluorescence	-	H37Rv	-	MIC99	0.333 µM
N/C(=N\N=C/c1cn(Cc2ccccc2Br)c2ccccc12)c1ccc2ccccc2n1	-	-	-	H37RV (INH RMP OFL-S)	-	MIC	>128 µg/mL
COc1ccc(N2C(=O)CS/C2=N/NC(=O)c2cc(-c3cc(F)cc(F)c3)ccc2O)cc1	-	BACTEC	-	H37Rv	6.25 µg/mL	inhibition	<90%
Cc1cc2c(cc1C)[n+]([O-])c(C#N)c(N)[n+]2[O-]	-	-	-	H37Rv	6.25 µg/mL	inhibition	97%
Fc1ccc(-c2nc3cc(-c4ccccc4)[nH]n3c2N=Nc2ccccc2)cc1	-	BACTEC	-	H37Rv	12.5 µg/mL	inhibition	87%
COc1ccc(/C=C/C2=NN(C(=N)N)C(c3ccc(OC)cc3)C2)cc1	-	resazurin	katG S315T isoniazid resistant	RGH103	-	MIC	0.3 µM
COC1/C=C\C=C(/C)C(=O)Nc2cc3nc4cc(Br)ccc4oc-3c(c2=O)CC(C)CC(OC)C(O)C(C)/C=C(\C)C1OC(N)=O	-	-	-	RMP-R	-	MIC	12.5 µg/mL
COC(=O)[C@H](Cc1c[nH]c2ccccc12)NC(=O)N[C@@H](CC1CCCCC1)C(=O)N[C@H](C(=O)NC[C@H]1C[C@@H](O)[C@H](n2ccc(=O)[nH]c2=O)O1)[C@H](C)N(C)C(=O)CN	-	resazurin / fluorescence	-	H37Rv	-	MIC99	0.2 µM
O=C(NNCc1ccccc1)c1ccccn1	-	BACTEC	-	H37Rv	12.5 µg/mL	inhibition	94%
COP(=O)(c1ccccc1)N1CCN(C2c3ccccc3-c3ccccc32)CC1	-	broth dilution	-	H37Rv	-	MIC	>24.7 µM
COC(=O)c1cc([N+](=O)[O-])c(C)c(C)n1	-	BACTEC	-	H37Rv	-	MIC bound	>12.5 µg/mL
Cc1ccc(S(=O)(=O)n2cc(-c3ccc4c(n3)CC(C)(C)CC4=O)c3ccccc32)cc1	-	-	-	H37Rv	-	MIC	25 µg/mL
C1CN(P2(N3CC3)=NP(N3CC3)(N3CC3)=NP(N3CC3)(N3CC3)=N2)CCO1	-	BACTEC	-	H37Rv	-	MIC bound	>128 µg/mL
C[C@H]1[C@H](C)Oc2c3c(c4c(-c5ccccc5)cc(=O)oc4c2[C@H]1O)OC(C)(C)C=C3	-	BACTEC	-	H37Rv	12.5 µg/mL	inhibition	99%
N#Cc1c(N2CCN(c3ccc([N+](=O)[O-])cc3)CC2)[n+](=O)c2ccc(-c3ccc([N+](=O)[O-])cc3)cc2n1[O-]	-	-	-	H37Rv	6.25 µg/mL	inhibition	94%
COc1cc2nc(N3CCN(C(=O)c4ccco4)CC3)nc(N)c2cc1OC	-	BACTEC	-	H37Rv	-	MIC bound	>12.5 µg/mL
Fc1ccc(ON2N=C(c3ccc(Cl)cc3)C(n3ccnc3)C2c2ccc(Cl)cc2)cc1	-	-	-	H37Rv	-	MIC	4 µg/mL
Cc1ccc(S(=O)(=O)n2cc(-c3ccc4c(n3)CCC(C)(C)C4=O)c3ccccc32)cc1	-	-	-	H37Rv	-	MIC	>25 µg/mL
COc1ccc(-c2ccc(C(=O)C(Cl)Cl)cc2)cc1Cl	-	-	-	H37Rv	-	MIC	12.5 µg/mL
Cn1c([N+](=O)[O-])cnc1/C=N/N1CCN(/N=C/c2ncc([N+](=O)[O-])n2C)CC1	-	resazurin	-	H37Rv	6.25 µg/mL	inhibition	7%
N/C(=N\N=C/c1cn(Cc2ccccc2)c2ccccc12)c1ccc2ccccc2n1	-	-	-	H37RV (INH RMP OFL-S)	-	MIC	16 µg/mL
CCCCCCOC(=O)[C@H](Cc1c[nH]c2ccccc12)NC(=O)N[C@@H](Cc1ccc2ccccc2c1)C(=O)N[C@H](C(=O)NC[C@H]1C[C@@H](O)[C@H](n2ccc(=O)[nH]c2=O)O1)[C@H](C)N(C)C(=O)CN	-	resazurin / fluorescence	-	H37Rv	-	MIC50	0.03 µM
CCOC(=O)c1ccc(-c2ccc3sc4ccccc4c3c2)nc1C	-	-	-	H37Rv	-	MIC	25 µg/mL
CC(C)C1=C(O)C2=C(C(=O)C1=O)[C@@]1(C)CCCC(C)(C)C1C[C@H]2O	-	MTT	-	H37Rv	-	MIC100	25 µg/mL
Cc1c2ccncc2c(C)c2c1[nH]c1ccc(Br)cc12	-	resazurin	-	H37Rv	6.25 µg/mL	inhibition	100%
CC1(C)CC(=O)c2ccc(-c3ccccc3)nc2C1	-	-	-	H37Rv	-	MIC	>25 µg/mL
O=C(c1ccc(-c2ccccc2)cc1)C(Br)Br	-	-	-	H37Rv	-	MIC	6.25 µg/mL
CC(=O)O[C@H]1C2=C(C(=O)C(=O)C(C(C)C)=C2O)[C@@]2(C)CCCC(C)(C)[C@@H]2[C@@H]1C(=O)Oc1ccc([N+](=O)[O-])cc1	-	MTT	-	H37Rv	-	MIC100	25 µg/mL
C[C@@H]([C@H](NC(=O)[C@H](CC1CCCCC1)NC(=O)N[C@@H](Cc1c[nH]c2ccccc12)C(=O)OCC(C)(C)C)C(=O)NC[C@H]1C[C@@H](O)[C@H](n2ccc(=O)[nH]c2=O)O1)N(C)C(=O)CN	-	resazurin / fluorescence	-	H37Rv	-	MIC99	0.0156 µM
COc1ccc2c(c1)[n+]([O-])c(C#N)c(N)[n+]2[O-]	-	-	-	H37Rv	-	MIC	>6.25 µg/mL
O=C(Nc1ccc(Oc2ccccc2)cc1)C1(c2cccs2)CCOCC1	-	turbidity	-	CDC1551	-	EC50	34.41 µM
C[C@H]1NCc2cc(-c3ccc4c(=O)c(C(=O)O)cn(C5CC5)c4c3OC(F)F)ccc21	-	-	-	10 strains	-	MIC90	0.0625 µg/mL
CC(c1ccc(C(=O)CCl)cc1)c1ccc(C(=O)CCl)cc1	-	-	-	H37Rv	-	MIC	12.5 µg/mL
CCOC(=O)c1ccc(-c2ccc(Br)cc2)nc1C	-	-	-	H37Rv	-	MIC	25 µg/mL
O=C(c1ccc(Cc2ccc(C(=O)C(Br)Br)cc2)cc1)C(Br)Br	-	-	-	H37Rv	-	MIC	12.5 µg/mL
O=C(/C=C/c1ccccc1)OCC1=CC(O)[C@@H]2C=CO[C@@H](O[C@@H]3O[C@H](CO)[C@@H](O)[C@H](O)[C@H]3O)[C@H]12	-	BACTEC	-	H37Rv	-	MIC bound	>12.5 µg/mL
CC(=O)OC1=C(C(C)C)C(=O)C2=C(C1=O)[C@@]1(C)CCCC(C)(C)[C@@H]1[C@H](OC(C)=O)[C@H]2OC(C)=O	-	MTT	-	H37Rv	-	MIC100	25 µg/mL
Cc1cc2c(cc1C)[n+](=O)c(N1CCN(c3ccc([N+](=O)[O-])cc3)CC1)c(C#N)n2[O-]	-	-	-	H37Rv	-	EC50	<6.25 µg/mL
O=C(NCCc1ccc(Cl)cc1)C1(c2cccs2)CCOCC1	-	turbidity	-	CDC1551	-	EC50	6.4 µM
CS(=O)(=O)OCCN(CCOS(C)(=O)=O)c1ccc(C=Nc2ccc(C(=O)O)cc2)c(Cl)c1.Cl	-	BACTEC	-	H37Rv	12.5 µg/mL	inhibition	0%
CCCCCCOc1ccc2c(c1)-c1ccccc1C2N1CCN(C(=O)c2ccccc2)CC1	-	broth dilution	-	H37Rv	-	MIC	>22 µM
CCCCOC(=O)c1ccc(NC(=O)C2(c3cccs3)CCOCC2)cc1	-	turbidity	-	CDC1551	-	EC50	121 µM
C=CCn1c(=O)c(C(=O)Nc2nc(C34CC5CC(CC(C5)C3)C4)cs2)c(O)c2ccccc21	VERO	-	-	H37Rv	-	MIC	3.13 µg/mL
N/C(=N\N=C/c1cn(Cc2ccc(Br)cc2)c2ccccc12)c1ccccn1	-	-	-	H37RV (INH RMP OFL-S)	-	MIC	64 µg/mL
CCOc1ccc2c(c1)n([O-])c1cc(Br)ccc1[n+]2=O	-	-	-	INH-r	-	MIC	3.1 µg/mL
N#Cc1nc2cc(Cl)ccc2nc1Cl	-	-	-	H37Rv	6.25 µg/mL	inhibition	58%
CN(C)CCC(=O)C(=Cc1cccs1)C(=O)CCN(C)C	-	resazurin	-	H37Rv	6.25 µg/mL	inhibition	15%
CN[C@@H]1[C@H](O[C@H]2[C@H](O[C@H]3[C@H](O)[C@@H](O)[C@H](N=C(N)N)[C@@H](O)[C@@H]3N=C(N)N)O[C@@H](C)[C@]2(O)C=O)O[C@@H](CO)[C@H](O)[C@H]1O	-	-	-	H37Rv	-	MIC	0.25 µg/mL
CCC1=CC2CN3CCc4c([nH]c5ccccc45)C(C(=O)OC)(C2)C13.O=S(=O)(O)O	-	resazurin	-	H37Rv	6.25 µg/mL	inhibition	-8%
CC(=O)OC1C2=C(C(=O)C(=O)C(C(C)C)=C2O)[C@@]2(C)CCCC(C)(C)[C@@H]2[C@@H]1OC(C)=O	-	MTT	-	H37Rv	-	MIC100	>25 µg/mL
Cc1cc(O)c2c(c1)C(=O)C(c1c(C)cc3c(c1O)C(=O)C1OC1C3=O)=CC2=O	-	-	-	RMP-R	-	MIC	0.8 µg/mL
Cc1ccc(NC(=O)C2(c3cccs3)CCOCC2)c(C)c1	-	turbidity	-	CDC1551	-	EC50	200 µM